In data set [1] the target is mono-nitrosylated holo NsrR (Streptomyces coelicolor) (UniProt Q9L132). In words: native MS. The following applies: NO from DEA NONOate, mono-nitrosylated complex not observed; native MS: 100 mM ammonium acetate pH 8 (30 C for nitrosylation); recombinant protein.
Data set [2] addresses T1, holo NsrR ([4Fe-4S] in each subunit) (Streptomyces coelicolor) (UniProt Q9L132).
T1 sequence (looked up, limits assumed): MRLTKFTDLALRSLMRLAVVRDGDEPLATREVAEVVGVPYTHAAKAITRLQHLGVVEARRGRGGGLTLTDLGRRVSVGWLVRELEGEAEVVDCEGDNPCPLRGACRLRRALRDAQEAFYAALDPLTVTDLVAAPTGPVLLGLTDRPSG
In words: native MS. The following applies: second DNA molecule, non-specific complex, 100 mM ammonium acetate pH 8; native MS: 100 mM ammonium acetate pH 8 (30 C for nitrosylation); recombinant protein.

The target in data set [3] is T1, holo NsrR ([4Fe-4S] in each subunit) (Streptomyces coelicolor). Put plainly: SPR. Conditions: reference surface, negligible binding; SPR: 10 mM HEPES, 150 mM NaCl, 0.05% polysorbate 20, pH 7.4, 25 C, anaerobic; recombinant protein; label: 5' biotin; single-stranded DNA.

For at least one entry, the source does not settle the construct or the ends of the probe. For part of these data: Negatives hold for the conditions tested. For part of these data: Where a protein sequence is shown, tags need not be part of it.

Consider “AACAAGCATCTGAGATCCCAGTT (double strand) [hmpA2 23 bp native MS]”, for which the binding result in data set [1] is recorded as “no binding”.
As a reminder, the Kd is a measure of binding affinity in units of concentration. Take “AACACGAATATCATCTACCAAT (double strand) [hmpA1 22 bp native MS]”: the Kd in data set [2] is 170 µM.
As for “GCAGGAGGACGTAGGGTAGG [ReDCaT probe (reference surface)]”, the binding result in data set [3] is on record as “no binding”.
